In paper PMC4498294, “Tetrahydroisoquinolines affect the whole-cell phenotype of Mycobacterium tuberculosis by inhibiting the ATP-dependent MurE ligase” (Journal of Antimicrobial Chemotherapy, 2015):
Where “and” joins values, the source holds several entries; their conditions need not be identical. Identical values can stand only once.

system: M. bovis BCG Pasteur; assay: not given; type: cell-based; details: RAW264.7 GIC50 divided by M. bovis BCG MIC

Row | SMILES | SI (=GIC50/MIC)
1 | Oc1ccc(C2NCCc3cc(O)c(O)cc32)cc1 (centres unmarked) [Compound 6] | <0.92
2 | CN1C[C@H](O)c2cc(O)c(O)cc2[C@H]1c1cccc2c1OCO2 [Compound 32] | <1.8
3 | COc1ccc(I)c2c1C(Cc1ccc3c(c1)OCO3)NCC2 (centres unmarked) [Compound 38] | 0.56
4 | COc1cccc2c1C(Cc1ccc3c(c1)OCO3)NCC2 (centres unmarked) [Compound 40] | <4.4
5 | COc1ccc(Cl)c2c1C(Cc1ccc3c(c1)OCO3)NCC2 (centres unmarked) [Compound 36] | 1.0
6 | Oc1ccc2c(c1)CCNC2Cc1ccc2c(c1)OCO2 (centres unmarked) [Compound 27] | 1.5
7 | COc1ccc(CC2NCCc3cc(O)c(O)cc32)cc1OC (centres unmarked) [Compound 18] | <0.56
8 | Oc1cc2c(cc1O)[C@@H](O)CNC2c1cccc2c1OCO2 (some centres unmarked) [Compound 30] | <0.89
9 | Oc1cc2c(cc1O)C(Cc1ccccc1Br)NCC2 (centres unmarked) [Compound 21] | <0.47
10 | Oc1cc2c(c(O)c1O)C(c1cccc3c1OCO3)NCC2 (centres unmarked) [Compound 33] | <0.055
11 | Oc1cc2c(cc1O)C(Cc1ccc3c(c1)OCO3)NCC2 (centres unmarked) [Compound 20] | 1.9
12 | O=C(O)[C@@H]1Cc2cc(O)c(O)cc2C(Cc2ccc3c(c2)OCO3)N1 (some centres unmarked) [Compound 26] | <1.8
13 | Oc1ccc2c(c1)CCNC2c1cccc2c1OCO2 (centres unmarked) [Compound 34] | <1.8
14 | COc1cc(CC2NCCc3cc(O)c(O)cc32)ccc1O (centres unmarked) [Compound 19] | <0.50
15 | COc1ccc(Cl)c2c1C(Cc1cc3c(cc1Br)OCO3)NCC2 (centres unmarked) [Compound 39] | 1.8
16 | NNC(=O)c1ccncc1 [Isoniazid, reference compound] | 30 000
17 | Oc1ccc(Br)c2c1C(Cc1ccc3c(c1)OCO3)NCC2 (centres unmarked) [Compound 28] | 2.3
18 | O=C(O)[C@@H]1Cc2cc(O)c(O)cc2[C@@H](Cc2ccccc2)N1 [Compound 11] | <0.87
19 | Oc1ccc(Br)c2c1C(c1cccc3c1OCO3)NCC2 (centres unmarked) [Compound 35] | 2.0
20 | COc1ccc(C2NCCc3cc(O)c(O)cc32)cc1 (centres unmarked) [Compound 5] | <0.91

Row | SMILES | SI (=GIC50/MIC)
21 | CN1C[C@H](O)c2cc(O)c(O)cc2[C@@H]1c1cccc2c1OCO2 [Compound 31] | <1.4
22 | Oc1cccc(CC2NCCc3cc(O)c(O)cc32)c1 (centres unmarked) [Compound 17] | <0.64
23 | C[C@@H]1NC(Cc2ccc3c(c2)OCO3)c2ccc(O)cc2[C@H]1O (some centres unmarked) [Compound 25] | <1.8
24 | Nc1ccc2c(c1)CCNC2Cc1ccccc1 (centres unmarked) [Compound 15] | <1.9
25 | Oc1cc2c(cc1O)[C@@H](O)CN[C@H]2Cc1ccccc1 [Compound 10] | >2.5
26 | Oc1ccc(CC2NCCc3cc(O)c(O)cc32)cc1 (centres unmarked) [Norcoclaurine (2), Norcoclaurine] | <4.3
27 | CC1(C(=O)O)NCCc2cc(O)c(O)cc21 (centres unmarked) [Compound 22] | <1.8
28 | Oc1cc2c(cc1O)C(c1ccccc1O)NCC2 (centres unmarked) [Compound 8] | <0.87
29 | Oc1cc2c(cc1O)C(C1CCCCC1)NCC2 (centres unmarked) [Compound 23] | <0.45
30 | OC[C@@H](O)[C@@H]1NCCc2cc(O)c(O)cc21 [Compound 14] | <0.85
31 | CCCCCCCCCC1NCCc2cc(O)c(O)cc21 (centres unmarked) [Compound 24] | 0.02
32 | Oc1cc2c(cc1O)C(Cc1ccccc1)NCC2 (centres unmarked) [Compound 3] | <0.81
33 | Oc1cccc(C2NCCc3cc(O)c(O)cc32)c1 (centres unmarked) [Compound 7] | <0.88
34 | COc1cc2c(c(O)c1OC)C[C@H]1c3c(cc4c(c3-2)OCO4)CCN1C [(S)-Leucoxine (1), (S)-Leucoxine] | 5.0
35 | Oc1cc2c(cc1O)C(c1cccc3c1OCO3)NCC2 (centres unmarked) [Compound 29] | <0.75
36 | COc1ccc(Br)c2c1C(Cc1ccc3c(c1)OCO3)NCC2 (centres unmarked) [Compound 37] | 1.5
37 | Oc1ccc2c(c1)CCNC2Cc1ccccc1 (centres unmarked) [Compound 16] | 2.0
38 | CC(C)=CCC[C@H](C)CC1NCCc2cc(O)c(O)cc21 (some centres unmarked) [Compound 13] | >2.5
39 | Oc1cc2c(cc1O)C(c1ccccn1)NCC2 (centres unmarked) [Compound 4] | <0.60
40 | CO[C@H]1/C=C/O[C@@]2(C)Oc3c(C)c(O)c4c(O)c(c(/C=N/N5CCN(C)CC5)c(O)c4c3C2=O)NC(=O)/C(C)=C\C=C\[C@H](C)[C@H](O)[C@@H](C)[C@@H](O)[C@@H](C)[C@H](OC(C)=O)[C@@H]1C [Rifampicin, reference compound] | 14 000

system: M. tuberculosis H37Rv; assay: SPOTi growth inhibition assay, M. tuberculosis H37Rv; type: cell-based; details: RAW264.7 GIC50 divided by M. tuberculosis H37Rv MIC

Row | SMILES | SI against M. tuberculosis
41 | COc1cc2c(c(O)c1OC)C[C@H]1c3c(cc4c(c3-2)OCO4)CCN1C [(S)-Leucoxine (1), (S)-Leucoxine] | 4.17 and 4
